Laboratory results taken from PubChem BioAssay AID1445 (SRMLSC, 2008).
The entries are a selection whose mix differs from that of the whole data set. Results with a measured potency or affinity are listed apart. Some salts or complexes appear as unconnected parts, following the source record. Activity calls are given as the source filed them.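 How the source made its calls: active means primary inhibition above the hit cutoff, then over 50% inhibition at one or more dose response concentrations (cut at about 23% in these data, passing the limit was not always enough); inconclusive means conflicting primary data, or primary hits not chosen for dose response; inactive means low primary inhibition, or under 50% at every dose.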

Protein sequences, listed by entry. Tags and fused reporters are not part of them.
UniProt O96935, whole entry: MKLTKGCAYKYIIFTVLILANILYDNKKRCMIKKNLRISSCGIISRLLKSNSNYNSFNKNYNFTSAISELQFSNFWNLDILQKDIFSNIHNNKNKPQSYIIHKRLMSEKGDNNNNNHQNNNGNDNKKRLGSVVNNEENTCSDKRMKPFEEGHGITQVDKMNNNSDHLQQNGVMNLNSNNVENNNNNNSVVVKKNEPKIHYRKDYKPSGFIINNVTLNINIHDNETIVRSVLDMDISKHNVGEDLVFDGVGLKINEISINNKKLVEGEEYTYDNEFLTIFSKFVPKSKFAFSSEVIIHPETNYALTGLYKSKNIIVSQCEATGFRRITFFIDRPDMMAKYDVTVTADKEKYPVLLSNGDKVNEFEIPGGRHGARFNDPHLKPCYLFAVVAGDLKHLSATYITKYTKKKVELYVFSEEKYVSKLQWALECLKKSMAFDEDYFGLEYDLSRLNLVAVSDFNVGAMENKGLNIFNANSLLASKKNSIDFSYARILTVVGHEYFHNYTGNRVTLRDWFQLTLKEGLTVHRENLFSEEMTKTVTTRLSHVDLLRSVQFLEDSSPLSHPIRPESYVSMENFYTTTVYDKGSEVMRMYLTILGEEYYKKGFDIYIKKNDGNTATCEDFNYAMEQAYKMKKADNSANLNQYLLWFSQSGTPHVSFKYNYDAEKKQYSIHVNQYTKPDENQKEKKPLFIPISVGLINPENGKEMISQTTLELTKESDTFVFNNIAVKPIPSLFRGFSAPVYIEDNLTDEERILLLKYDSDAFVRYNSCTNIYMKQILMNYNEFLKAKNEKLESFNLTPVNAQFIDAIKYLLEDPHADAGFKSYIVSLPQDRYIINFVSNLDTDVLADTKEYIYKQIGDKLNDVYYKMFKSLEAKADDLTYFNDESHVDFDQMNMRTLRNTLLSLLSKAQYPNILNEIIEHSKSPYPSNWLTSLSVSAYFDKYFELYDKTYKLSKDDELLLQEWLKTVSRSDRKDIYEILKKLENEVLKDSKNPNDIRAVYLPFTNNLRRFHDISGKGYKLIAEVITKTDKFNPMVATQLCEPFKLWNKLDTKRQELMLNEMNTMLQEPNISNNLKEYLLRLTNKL

Biological target: Aminopeptidase N (Plasmodium falciparum (isolate 3D7)) (UniProt O96935)
Assay: malaria alanyl aminopeptidase activity blockers – biochemical, fluorogenic H-Leu-NHMec substrate, 1536-well (AID 1445);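 further: plate controls were DMSO full reaction for no effect and no enzyme background for full effect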
Conditions: recombinant M1AAP, H-Leu-NHMec fluorogenic kinetic assay; at 30 µM; active compounds read high

| SMILES | inhibition |
| --- | --- |
| CCOP(C)(=S)SCC(=O)NC(C)(CC)C(=O)O (configuration not stated) | inactive: 6.76% |
| CP(=O)(Nc1ccc(SC(F)(F)F)cc1)Oc1ccc(F)cc1 (configuration not stated) | inactive: 1.4% |
| Cc1ccccc1NP(C)(=O)Nc1ccccc1C | inactive: 3.85% |
| CP(=O)(Nc1ccc2c(c1)OCCO2)Oc1ccccc1 (configuration not stated) | inactive: 4.79% |
| CN(C)CCOC(=O)C(O)(c1ccccc1)C1CCCCC1 (configuration not stated) | inactive: 4.22% |
| COc1ccc(NP(C)(=O)Oc2ccccc2OC)cc1 (configuration not stated) | inactive: 0.58% |
| COc1ccc(OP(C)(=O)Nc2cccc(Br)c2)cc1 (configuration not stated) | inactive: 1.99% |
| O=[N+]([O-])c1ccc(OP2(=O)COCCO2)cc1 (configuration not stated) | inactive: -1% |
| Cc1cc(-c2cccc3ccccc23)c(C)cn1.O=[N+]([O-])c1cc([N+](=O)[O-])c(O)c([N+](=O)[O-])c1 | inactive: 11.1% |
| O=[N+]([O-])c1cc([N+](=O)[O-])c(NCC2CCS(=O)(=O)C2)c([N+](=O)[O-])c1 (configuration not stated) | inactive: 4.45% |
| CCOC(=O)c1ccc(NP(C)(=O)Oc2ccc(F)cc2)cc1 (configuration not stated) | inactive: 4.78% |
| COc1ccc(OP(C)(=O)Nc2ccc(SC(F)(F)F)cc2)cc1 (configuration not stated) | inactive: 0.39% |
| CP(=O)(Nc1ccccc1)Oc1ccc(F)cc1 (configuration not stated) | inactive: 5% |
| CCCCCOc1ccc(NP(C)(=O)Oc2ccc(Cl)cc2Cl)cc1 (configuration not stated) | inactive: -0.22% |
| CCN(CC)CCCOC(=O)C(O)(c1ccccc1)C1CCCCC1 (configuration not stated) | inactive: 1.79% |
| CP(=O)(Nc1ccccc1F)Oc1ccccc1 (configuration not stated) | inactive: -3.51% |
| CC(C)c1ccc(OP(C)(=O)Nc2ccc(SC(F)(F)F)cc2)cc1 (configuration not stated) | inactive: 10.1% |
| COc1ccc2c(c1O)-c1c(O)c(OC)cc3c1[C@H](C2)[N+](C)(C)CC3.O=[N+]([O-])c1cc([N+](=O)[O-])c([O-])c([N+](=O)[O-])c1[O-] | inactive: 9.32% |
| O=C(OC1CN2CCC1CC2)c1ccc([N+](=O)[O-])cc1 (configuration not stated) | inactive: -2.51% |
| O=C(OCCN1CCN(CCOCc2ccccc2)CC1)C(O)(c1ccccc1)c1ccccc1 | inactive: -0.28% |
| COc1ccc(OP(C)(=O)Nc2ccccn2)cc1 (configuration not stated) | inactive: 13.7% |
| CN(C)CCOC(=O)C(O)(c1ccccc1)C1CCCC1 (configuration not stated) | inactive: 0.84% |
| COc1ccccc1OP(C)(=O)Nc1ccc(Br)cc1 (configuration not stated) | inactive: 0.15% |
| CP(=O)(Nc1ccccn1)Oc1ccccc1 (configuration not stated) | inactive: 0.12% |
| COc1ccccc1OP(C)(=O)Nc1ccc(C)cc1C (configuration not stated) | inactive: 1.22% |
| CCc1ccc(OP(C)(=O)O)cc1 | inactive: -5.24% |
| O=[N+]([O-])c1cc([N+](=O)[O-])c(Nc2ccccn2)c([N+](=O)[O-])c1 | inactive: 1.85% |
